Data set [1] has as its target T1, Tc38 (native, epimastigote whole protein extract) (Trypanosoma cruzi) (UniProt Q9GV75).
T1 sequence (looked up, limits assumed): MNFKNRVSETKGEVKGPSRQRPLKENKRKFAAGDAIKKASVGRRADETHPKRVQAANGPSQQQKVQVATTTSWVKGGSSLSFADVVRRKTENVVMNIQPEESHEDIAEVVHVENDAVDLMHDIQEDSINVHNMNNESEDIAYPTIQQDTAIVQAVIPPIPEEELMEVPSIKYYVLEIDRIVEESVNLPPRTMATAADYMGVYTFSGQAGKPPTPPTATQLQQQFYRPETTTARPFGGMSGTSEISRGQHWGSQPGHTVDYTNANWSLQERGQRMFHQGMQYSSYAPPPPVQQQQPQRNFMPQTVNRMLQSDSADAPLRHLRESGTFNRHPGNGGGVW
The data set is described as follows: EMSA supershift. The conditions noted are these: 10 mM Tris-HCl (pH not stated), 10 mM KCl, 10 mM MgCl2, 1 mM DTT, 1 mM EDTA, 5 mM spermidine, 0.2 ug poly[dI-dC], 20 uL, 1 ug extract, 1 ng probe, protein in an extract, label: 32P 5' end label (T4 PNK), single-stranded DNA. In general terms: In EMSA bound probe runs differently from free probe, usually more slowly.

Data set [2] has as its target GST-Tc38 (Trypanosoma cruzi) (UniProt Q9GV75). The data set is described as follows: EMSA supershift. The conditions noted are these: anti-Tc38 supershift; 10 mM Tris-HCl (pH not stated), 10 mM KCl, 10 mM MgCl2, 1 mM DTT, 1 mM EDTA, 5 mM spermidine, 0.2 ug poly[dI-dC], 20 uL, 1 ug extract, 1 ng probe; recombinant protein; protein details: GST; label: 32P 5' end label (T4 PNK); single-stranded DNA.

[3] abbreviates: anti-Tc38 supershift, anti-TcPuf6 does not.

For at least one entry, the source does not settle the construct or the ends of the probe. For some assays here: Results from cells or extracts need not show a direct contact. For some assays here: Tags and fusion partners may be left off the protein sequences shown.

Regarding “TTAAATAGTAGTGTTGTTTAACCTTAAATAGTAGTGTTGTTTAACC [MAX]”, in data set [1] (setting [3]), the binding result was “binds”. Regarding “GGGTTAGGGTTAGGGTTAGGGTTAGGGTTAGGGTTA [TEL]”, in data set [1] (setting [3]), the binding result is given as “binds”. Still for that read-out and setting: in the case of “GGGGTTGGTGTAGGGGTTGGTGTAGGGGTTGGTGTA [MIN]” it was “binds”. For the sequence “TGTGTGTGTGTGTGTGTGTGTGTGTGTGTGTGTGTGTGTG [TG (TG20, poly [dT-dG])]”, the binding result in data set [2] is listed as “binds”; in data set [1] (anti-Tc38 supershifts TG1 and TG2, anti-TcPuf6 does not), “binds”.

These data come from publication PMC2654453.
